Pooled drug test results. Numbers come from NIAID ChemDB, via PubChem.

Shared fields: growth or infection tests; organism: Herpes simplex virus 1

Conditions beyond the fields shown may differ between rows.

structure	endpoint	strain	cell line	method	result
Nc1nc(N)c2ncn(CC(CO)OCP(=O)(O)O)c2n1	EC50	(TK-) 2 strains	Primary rabbit kidney cells	cytopathic effect	10 µg/mL
CC(=O)O[C@H]1[C@@H](O)C[C@H](O[C@H]2[C@@H](O)C[C@H](O[C@H]3[C@@H](O)C[C@H](O[C@H]4CC[C@@]5(C)[C@H](CC[C@@H]6[C@@H]5CC[C@]5(C)[C@@H](C7=CC(=O)OC7)CC[C@]65O)C4)O[C@@H]3C)O[C@@H]2C)O[C@@H]1C	EC50	29R	VERO	plaque count	0.34 µM
CCCCCCCCCCCCCCCCCCOC[C@@H](O)COP(=O)(O)C(=O)O	EC50	-	MRC-5	-	0.63 µM
Nc1nc2c(ncn2CC(CO)OCP(=O)(O)O)c(=O)[nH]1	EC50	3 strains	Primary rabbit kidney cells	cytopathic effect	7 µg/mL
Nc1ccn(C[C@@H](CO)OCP(=O)(O)O)c(=O)n1	EC50	C137-101 (TK-)	-	cytopathic effect	0.4 µg/mL
CCCCC/C=C\C/C=C\CCCCCCCC(=O)O	EC50	KOS	HeLa	cytopathic effect	>200 µg/mL
O=c1c2cnn(-c3ccccc3)c2nc2n1N=C(c1ccc(Cl)cc1)CN2c1ccccc1	EC50	-	VERO	plaque count	15 µg/mL
Nc1nc2c(ncn2CCC(CO)COP2(=O)OCc3ccccc3O2)c(=O)[nH]1	EC50	KUPKA	VERO	cytopathic effect	91.6 µM
CCOC(=O)c1cc(O)c(O)c(O)c1	EC50	KOS	HEL	plaque count	6.1 µg/mL
NC(=O)c1ncn([C@@H]2O[C@H](CO)[C@@H](O)[C@H]2O)n1	MIC	KOS	-	-	>1000 µM
Cc1cc(=O)oc2cc(O)c(O)cc12	EC50	B2006 (TK-)	HEL	plaque count	23 µg/mL
CC(=O)OC1CCC2(C)C(=CCC3C4CCC(=O)C4(C)CCC32)C1	EC50	-	VERO	virus yield	86.7 µM
C[C@H](NC(=O)CN)C(=O)OCCOCn1cnc2c(=O)[nH]c(N)nc21	MIC	KOS	-	-	0.96 µM
Nc1ncnc2c1ncn2CCOCP(=O)(O)O	EC50	3 strains	Primary rabbit kidney cells	cytopathic effect	7 µg/mL
COC1=CC(=O)C[C@@H](C)[C@]12Oc1c(Cl)c(OC)cc(OC)c1C2=O	EC50	KOS	HeLa	cytopathic effect	>200 µg/mL
Nc1nc2c(ncn2COC(CO)CO)c(=O)[nH]1	MIC	KOS	-	-	0.38 µM
C[C@@]1(CO)[C@H](O)CC[C@@]2(C)[C@H]1CC[C@H]1C[C@@H]3C[C@@]12CC[C@]3(O)CO	EC50	-	VERO	plaque count	100 µg/mL
O=C(O)P(=O)(O)O	EC90	PFA-resistant-2	HeLa	virus yield	>1000 µM
Cc1nn2c(=O)c3cnn(-c4ccccc4)c3nc2n1-c1ccccc1	EC50	-	VERO	plaque count	31 µg/mL
Nc1ncnc2c1ncn2CCOCP(=O)(O)O	EC90	PFA-resistant-1	HeLa	virus yield	520 µM
C[C@H]1O[C@@H](O[C@H]2[C@@H](O)C[C@H](O[C@H]3[C@@H](O)C[C@H](O[C@H]4CC[C@@]5(C)[C@H](CC[C@@H]6[C@@H]5CC[C@]5(C)[C@@H](C7=CC(=O)OC7)CC[C@]65O)C4)O[C@@H]3C)O[C@@H]2C)C[C@H](O)[C@@H]1O	EC50	KOS	VERO	plaque count	0.34 µM
O=c1[nH]c(=O)n([C@@H]2O[C@@H](CO)C[C@H]2F)cc1Br	EC50	-	VERO	-	>100 µM
CCC(N)C(O)C(O)C(C)C(=O)NC(CC(C)C)C1Cc2cccc(O)c2C(=O)O1	EC50	KOS	HeLa	cytopathic effect	>100 µg/mL
COC(=O)[C@H](C)NP(=O)(OC[C@@H]1C[C@]12C[C@@H]2n1cnc2c(N)ncnc21)Oc1ccccc1	EC50	-	VERO	plaque count	20 µM
Nc1nccc2c1ncn2[C@@H]1C[C@H](CO)[C@@H](O)[C@H]1O	EC50	B2006 (TK-)	E6SM	cytopathic effect	20 µg/mL
CC(C)[C@H](NC(=O)CN)C(=O)OCCOCn1cnc2c(=O)[nH]c(N)nc21	MIC	KOS	-	-	2.9 µM
O=C(O)Cc1ccc(O)c(O)c1	EC50	-	VERO	cytopathic effect	>512 µg/mL
O=c1[nH]c(=O)n([C@H]2O[C@@H](CO)C[C@H]2F)cc1I	EC50	-	VERO	-	>100 µM
CCCCCCCCCCCCCCCCSC[C@H](O)COP(=O)(O)C(=O)O	EC50	-	MRC-5	-	4.3 µM
Nc1ccc2c(c1)nc(Cl)n2[C@@H]1O[C@H](CO)[C@@H](O)[C@H]1O	EC50	KOS	HFF	ELISA	>100 µM
O=c1c2cnn(-c3ccccc3)c2nc2n1N=C(c1ccc(F)cc1)CN2c1ccccc1	EC50	-	VERO	plaque count	21 µg/mL
Nc1ncnc2c1ncn2C[C@@H](CO)OCP(=O)(O)O	EC50	(TK-) 2 strains	Primary rabbit kidney cells	cytopathic effect	2 µg/mL
C=C(/C=C/P(=O)(O)O)Cn1cnc2c(=O)[nH]c(N)nc21	EC50	HF	VERO	cytopathic effect	119 µM
Cc1cccc2c1OP(=O)(OCCOCn1cnc3c(=O)[nH]c(N)nc31)OC2	EC50	KUPKA	VERO	cytopathic effect	0.47 µM
C[C@]12CCC3C(CC[C@H]4C[C@@H](O)CC[C@]34C)C1C[C@@H](Br)C21OCCO1	EC50	-	VERO	virus yield	472 µM
O=c1[nH]c(=O)n([C@H]2O[C@@H](CO)C[C@H]2F)cc1F	EC50	-	VERO	-	>100 µM
C/C=C(\CO)C(=O)O[C@H]1[C@H](O)[C@@H](C(=O)OC)O[C@@H]2C[C@H]3O[C@@H](n4cnc5c(N)ncnc54)[C@H](OC)[C@H]3O[C@]21O	EC50	KOS	HeLa	cytopathic effect	>100 µg/mL
O=c1[nH]c(=O)n([C@H]2C[C@H](O)[C@@H](CO)O2)cc1/C=C/Br	MIC	KOS	-	-	0.26 µM
O=c1c2cnn(-c3ccccc3)c2nc2n(-c3ccccc3)cnn12	EC50	-	VERO	plaque count	33 µg/mL
C[C@]12CCC3C(CC[C@H]4C[C@@H](O)CC[C@]34C)C1C=CC21OCCO1	EC50	-	VERO	virus yield	268 µM
O=c1[nH]cnc2c1ncn2[C@H]1O[C@@H](CO)C[C@H]1F	EC50	-	VERO	-	>100 µM
Cc1cccc2c1OP(=O)(OCC(CO)CCn1cnc3c(=O)[nH]c(N)nc31)OC2	EC50	KUPKA	VERO	cytopathic effect	57.2 µM
CCCCC[C@H](CC(=O)NO)C(=O)N[C@H](C(=O)N1CCC[C@H]1CO)C(C)C	EC50	KOS	HeLa	cytopathic effect	>200 µg/mL
Cc1c(CC(=O)O)ccc(O)c1O	EC50	-	VERO	cytopathic effect	9.6 µg/mL
CC(=O)O[C@H]1C[C@@]2(C)[C@@H](C[C@@H](O)[C@H]3[C@@]4(C)CC[C@@H](O)[C@@H](C)[C@@H]4CC[C@@]32C)/C1=C(\CCC=C(C)C)C(=O)O	EC50	KOS	HeLa	cytopathic effect	>200 µg/mL
O=c1[nH]c(=O)n([C@H]2O[C@@H](CO)C[C@H]2F)cc1Br	EC50	-	VERO	-	>100 µM
CCCCC/C=C\C/C=C\C/C=C\C/C=C\CCCC(=O)O[C@H]1CC[C@@]2(C)C(=CC[C@H]3[C@@H]4CC[C@H]([C@H](C)CCCC(C)C)[C@@]4(C)CC[C@@H]32)C1	EC50	KOS	HeLa	cytopathic effect	>200 µg/mL
COC[C@H](Cc1ccc2c(c1)OCO2)[C@@H](COC)Cc1ccc2c(c1)OCO2	EC50	1	-	-	143.1 µg/mL
COc1cc(OC)c(N2C(=O)C=C(c3ccccc3)C2=O)c(OC)c1	EC50	KOS	VERO	plaque count	3.9 µg/mL
C[C@]12CC[C@H](O)C[C@H]1CC[C@@H]1[C@@H]2C[C@@H](O)[C@]2(C)[C@@H](C3=CC(=O)OC3)CC[C@]12O	EC50	KOS	VERO	plaque count	3.5 µM
C[C@]12CCC3C(CC[C@H]4C[C@@H](O)CC[C@]34C)C1[C@@H](O)CC2=O	EC50	-	VERO	virus yield	118 µM
CCCCCCCCSC[C@H](O)COP(=O)(O)C(=O)O	EC50	-	MRC-5	-	85 µM
C[C@]12CCC3C(CC[C@H]4C[C@@H](O)CC[C@]34C)C1C[C@@H](Br)C2=O	EC50	-	VERO	virus yield	97.5 µM
CO[C@H]1C[C@H](O[C@H]2CC[C@]3(C=O)[C@H]4CC[C@]5(C)[C@@H](C6=CC(=O)OC6)CC[C@]5(O)[C@@H]4CC[C@]3(O)C2)O[C@H](C)[C@H]1O[C@@H]1O[C@H](CO[C@@H]2O[C@H](CO)[C@@H](O)[C@H](O)[C@H]2O)[C@@H](O)[C@H](O)[C@H]1O	EC50	29R	VERO	plaque count	0.5 µM
C[C@H](Cc1ccc2c(c1)OCO2)[C@@H](C)Cc1ccc2c(c1)OCO2	EC50	1	-	-	111.1 µg/mL
C[C@H]1c2cccc(O)c2C(O)=C2C(=O)[C@]3(O)C(O)=C(C(N)=O)C(=O)[C@@H](N(C)C)[C@@H]3[C@@H](O)[C@@H]21	EC50	KOS	HeLa	cytopathic effect	>100 µM
Nc1ncnc2c1ncn2C[C@H](O)CO	EC50	McIntyre	PRK	cytopathic effect	>100 µg/mL
COCCOCn1cc(C(N)=S)c2c(N)ncnc21	EC50	KOS	HFF	ELISA	85 µM
NCC(O)c1ccc(O)c(O)c1	EC50	B2006 (TK-)	HEL	plaque count	35 µg/mL
Nc1ncnc2c1ncn2[C@@H]1C[C@@H](O)[C@H](CO)O1	EC50	-	HFF	-	>100 µM
CCCCCCCCCCCCCCCCOC[C@@H](O)COP(=O)(O)C(=O)O	EC50	-	MRC-5	-	2.9 µM
CC(=O)O[C@H]1CC[C@@]2(C)C(=CC[C@@H]3[C@@H]2CC[C@]2(C)C(=O)CC[C@@H]32)C1	EC50	-	VERO	virus yield	176 µM
CC(=O)OCC(CCn1cnc2c(=O)[nH]c(N)nc21)COP1(=O)OCc2cccc(C)c2O1	EC50	KUPKA	VERO	cytopathic effect	111 µM
N#Cc1c(N)n(Cc2ccc(Br)cc2)c2ncnc(N)c12	EC50	KOS	HFF	ELISA	>100 µM
Cc1cc2c(ccc3nc(N)nc(N)c32)[nH]1	EC50	KOS	VERO	plaque count	8.3 µg/mL
O=C(O)P(=O)(O)O	EC50	C137-101 (TK-)	-	cytopathic effect	52 µg/mL
CC(C)NCC(O)c1ccc(O)c(O)c1	EC50	B2006 (TK-)	HEL	plaque count	66 µg/mL
C[C@H]1O[C@@H](O[C@H]2CC[C@@]3(C)[C@H](CC[C@@H]4[C@@H]3CC[C@]3(C)[C@@H](C5=CC(=O)OC5)CC[C@]43O)C2)C[C@H](O)[C@@H]1O	EC50	KOS	VERO	plaque count	0.14 µM
CCCOC(=O)c1cc(O)c(O)c(O)c1	EC50	B2006 (TK-)	HEL	plaque count	23 µg/mL
Nc1nc2c(ncn2COCCO)c(=O)[nH]1	EC50	KUPKA	VERO	cytopathic effect	0.62 µM
Nc1nc(-c2ccc(Br)cc2)cs1	EC50	KOS	VERO	plaque count	10 µg/mL
C[C@]12CC[C@H]3[C@@H](CC[C@]4(O)C[C@@H](O[C@@H]5O[C@@H](O)[C@H](O)[C@@H](O)[C@H]5O)CC[C@]34C=O)[C@@]1(O)CC[C@@H]2C1=CC(=O)OC1	EC50	KOS	VERO	plaque count	0.02 µM

Repeating the first 5 entries:

structure	endpoint	strain	cell line	method	result
Nc1nc(N)c2ncn(CC(CO)OCP(=O)(O)O)c2n1	EC50	(TK-) 2 strains	Primary rabbit kidney cells	cytopathic effect	10 µg/mL
CC(=O)O[C@H]1[C@@H](O)C[C@H](O[C@H]2[C@@H](O)C[C@H](O[C@H]3[C@@H](O)C[C@H](O[C@H]4CC[C@@]5(C)[C@H](CC[C@@H]6[C@@H]5CC[C@]5(C)[C@@H](C7=CC(=O)OC7)CC[C@]65O)C4)O[C@@H]3C)O[C@@H]2C)O[C@@H]1C	EC50	29R	VERO	plaque count	0.34 µM
CCCCCCCCCCCCCCCCCCOC[C@@H](O)COP(=O)(O)C(=O)O	EC50	-	MRC-5	-	0.63 µM
Nc1nc2c(ncn2CC(CO)OCP(=O)(O)O)c(=O)[nH]1	EC50	3 strains	Primary rabbit kidney cells	cytopathic effect	7 µg/mL
Nc1ccn(C[C@@H](CO)OCP(=O)(O)O)c(=O)n1	EC50	C137-101 (TK-)	-	cytopathic effect	0.4 µg/mL

ECn is the concentration giving n% inhibition of infection, replication or growth. An empty or dashed field is not shown.